Experimental data reported in patent publication US10781184B2, “Substituted benzazinones as antibacterial compounds” (GlaxoSmithKline Intellectual Property Development Limited, priority 2015, dated 2020).
The structures given here were assigned with low confidence; some may be wrong.

Legend:
Test in all cases: Minimum Inhibitory Concentration Assay (broth microdilution, CLSI)
[1] = tested on: P. aeruginosa PA01; conditions: strain PA01, broth microdilution
Method: (§1) Methods for dilution Antimicrobial Susceptibility TestS for Bacteria that Grow Aerobically; Approved Standard-Ninth Edition; M7-A9, Vol. 32 No. 2, Clinical and Laboratory Standards Institute, Wayne, Pa.; January 2012.
(§2) Performance Standards for Antimicrobial Susceptibility Testing; Twenty-Second Informational Supplement; M100-S22 Vol. 32 No. 3; Clinical and Laboratory Standards Institute, Wayne, Pa., January 2012.
(§3) Broth microdilution was performed in accordance with the CLSI recommended procedures for aerobic bacteria [CLSI, 2012].
(§4) Comparator compound stock solutions were prepared as recommended by CLSI [CLSI, 2012]. The stock solutions of novel GSK compounds were prepared at 512 mcg/mL by dissolving the compounds in dimethyl sulfoxide (DMSO) and diluting 1:10 with sterile water. The 512 mcg/mL stock was further serially diluted in the recommended broth media for the organisms being tested. Final DMSO concentration in test wells was less than 1%.
(§5) Microtitre plates were prepared using the Microlab STAR™ (Hamilton Co., Reno, Nev.) to add media (50 μL) and the Microlab AT Plus system (Hamilton Co., Reno, Nev.) to serially dilute the compounds (final concentration range 0.125 to 128 mcg/mL) and to add inoculum. A positive growth control well containing medium and the test isolate was included on each microtitre plate. Ten microliters of the test medium from the positive growth control well was plated to determine the purity of each test isolate. A microtitre mirror reader (Cooke Instruments, Ltd., England) was used to assist in determining the microdilution MIC endpoints. The MIC was determined as the lowest concentration of compound that inhibited visible growth of the organism.

[2] = tested on: K. pneumoniae 1161486; conditions: strain 1161486, broth microdilution
Method: as §1, §2, §3, §4, §5

[3] = tested on: E. coli 7623; conditions: strain 7623, broth microdilution
Method: as §1, §2, §3, §4, §5

CN(C)Cc1ccc(-c2ccc3c(=O)n(CC[C@](C)(C(=O)NO)S(C)(=O)=O)cc(F)c3c2)c(F)c1
P. aeruginosa PA01 MIC [1]: 2 µg/mL
K. pneumoniae 1161486 MIC [2]: 0.25 µg/mL
E. coli 7623 MIC [3]: 0.25 µg/mL
